Measured values from PMC12736150 (Pharmaceuticals, 2025).

Test system: MPXV strain MOH-NRC-0002/2022, clade II lineage A.2.1
Settings: MPXV in Vero-E6 cells

CC(C)C(=O)OC[C@H]1O[C@@H](n2ccc(NO)nc2=O)[C@H](O)[C@@H]1O [Molnupiravir]
SI (selectivity safety index = CC50/IC50): 19.5
